Results of unrelated studies side by side (data: NIAID ChemDB).

Shared fields: whole-cell or culture tests; species: HIV-1; read-out: fold resistance

Rows are shuffled and stem from different studies. Fold resistance: result on the changed form divided by that on wild type. Blank or dashed fields: not listed here.

SMILES,read by,changes,cell line,strain,value
CC(C)CN(C[C@@H](O)[C@H](Cc1ccccc1)NC(=O)O[C@H]1CCOC1)S(=O)(=O)c1ccc(N)cc1,p24 / ELISA,K112M K113E V128I M200I H219P I401T R409K D437N L441P,MT-2,IIIB,1.2
Cc1c(N)nc(N)nc1OCCOCP(=O)(O)O,syncytia,RT-M41L V118I L210W T215Y,CEM,Clinical isolate C19,8.5
S=C(NCCc1ccccn1)Nc1ccc(Br)cn1,,RT-K103N Y181C,PBMC,A17,>14300
Cc1cn([C@H]2C[C@H](N=[N+]=[N-])[C@@H](CO)O2)c(=O)[nH]c1=O,syncytia,RT-M41L T215Y,CEM,HXB2,≥1250
Cc1cn([C@H]2C[C@H](N=[N+]=[N-])[C@@H](CO)O2)c(=O)[nH]c1=O,p24,RT-F77L,PBMC,Recombinant,0
Cc1ccc(CCNC(=S)Nc2ccc(Br)cn2)cc1,p24,RT-Y181C,PBMC,A17,10
O=C(Nc1ncc[nH]1)c1cccc(CN2C(=O)N(Cc3ccccc3)[C@H](Cc3ccccc3)[C@H](O)[C@@H](O)[C@H]2Cc2ccccc2)c1,p24,PR-V82F,MT-4,HXB2,0.5
Cc1cn([C@H]2C[C@H](N=[N+]=[N-])[C@@H](CO)O2)c(=O)[nH]c1=O,p24 / ELISA,K112M K113E V128I,MT-2,IIIB,0.7
CC(C)[C@H](NC(=O)OCc1ccccc1)C(=O)N[C@@H](Cc1ccccc1)[C@@H](O)[C@H](O)[C@H](Cc1ccccc1)NC(=O)[C@@H](NC(=O)OCc1ccccc1)C(C)C,p24,PR-V82F,MT-4,HXB2,1.8
CN1C(=O)N(Cc2ccccc2)S(=O)(=O)c2cscc21,syncytia,RT-Y188H,CEM,IIIB,≥141
CC(C)=CCOc1cc(NC(=S)c2ccsc2C)ccc1Cl,syncytia,RT-V106A,CEM,IIIB,13.89
N#CCN1C(=O)N(Cc2ccccc2)S(=O)(=O)c2cscc21,syncytia,RT-L100I,CEM,IIIB,6.5
Nc1ncnc2c1ncn2CCOCP(=O)(O)O,syncytia,RT-S68G K70T V75I F77L K103N F116Y Q151M K219R,CEM,Clinical isolate L6.5,20
COc1ccc2c(c1)N(C(=O)OC(C)C)[C@@H](CSC)C(=S)N2,p24,RT-L100I,CEM,IIIB,2
Cc1cn([C@@H]2O[C@H](CO[Si](C)(C)C(C)(C)C)C3(OS(=O)(=O)C=C3N)[C@H]2O[Si](C)(C)C(C)(C)C)c(=O)n(C)c1=O,cytopathic effect,RT-V179D,CEM,IIIB,6.47
Nc1nc2c(ncn2[C@H]2CC[C@@H](CO)O2)c(=O)[nH]1,syncytia,RT-Y181C,CEM,Pyr(RT-Y181C),0.75
Cc1occc1C(=S)Nc1ccc(Cl)c(/C=N/OC(C)(C)C)c1,p24,RT-V106A,CEM,IIIB,2.6
Cc1ccnc2c1NC(=O)c1cccnc1N2C1CC1,syncytia,RT-M41L T215Y,CEM,HXB2,2.22
CC(C)Nc1cccnc1N1CCN(C(=O)c2cc3ccccc3[nH]2)CC1,syncytia,RT-Y181C,CEM,Pyr(RT-Y181C),22.5
COC(=O)N[C@H](C(=O)N[C@@H](Cc1ccccc1)[C@@H](O)CN(Cc1ccc(-c2ccccn2)cc1)NC(=O)[C@@H](NC(=O)OC)C(C)(C)C)C(C)(C)C,,L10F M46I I54V V82A LPV resistant,MT-4,NL4-3,8
O=c1[nH]cnc2c1ncn2[C@H]1CC[C@@H](CO)O1,p24,RT-K65R M184V,CBMC,HXB2-D (RT K65R M184V),2.89
O=C(Nc1ncc[nH]1)c1cccc(CN2C(=O)N(Cc3cccc(C(=O)Nc4ncc[nH]4)c3)[C@H](Cc3ccccc3)[C@H](O)[C@@H](O)[C@H]2Cc2ccccc2)c1,p24,PR-V82F,MT-4,HXB2,1.6
Cc1cn([C@@H]2O[C@H](CO[Si](C)(C)C(C)(C)C)C3(OS(=O)(=O)C=C3N)[C@H]2O[Si](C)(C)C(C)(C)C)c(=O)n(C)c1=O,p24,RT-M184I,CEM,IIIB,1.04
COC(=O)c1cc2c(c(OC)c1-c1ccc(N(C)C)cc1)OCO2,fluorescence,SJP-L-5-resistant,C8166,IIIB,1240
CC(=O)Oc1ccc(/C=C/C(=O)O[C@H](C(=O)O)[C@H](OC(=O)/C=C/c2ccc(OC(C)=O)c(OC(C)=O)c2)C(=O)O)cc1OC(C)=O,,AMD3100-resistant,MT-4,NL4-3,>11.9
C[C@H](COc1cc(N)nc(N)n1)OCP(=O)(O)O,syncytia,RT-M41L V118I L210W T215Y,CEM,Clinical isolate C19,7.57
Cc1occc1C(=S)Nc1ccc(Cl)c(/C=N/OC(C)(C)C)c1,syncytia,RT-M41L T215Y,CEM,HXB2,1.5
O=C1N(Cc2ccccc2)c2cscc2S(=O)(=O)N1Cc1ccccc1,syncytia,RT-L100I,CEM,IIIB,≥5.56
CC(C)CN(C[C@@H](O)[C@H](Cc1ccccc1)NC(=O)O[C@H]1CCOC1)S(=O)(=O)c1ccc(N)cc1,,L10F V32I M46I I45M A71V I84V APV resistant,MT-4,NL4-3,>13
O=c1[nH]cnc2c1ncn2[C@H]1CC[C@@H](CO)O1,plaque count,RT-M41L Y181C T215Y,HT4 + HT4 LacZ-1,HXB2,0.429
Nc1cc(OCCOCP(=O)(O)O)nc(N)n1,syncytia,RT-K65R S68G T69I V75T Q151M,CEM,Clinical isolate DE434.4,6.8
CC(C)=CCOc1cc(NC(=S)c2ccoc2C)ccc1Cl,syncytia,RT-V179D,CEM,IIIB,3.33
Nc1ccn([C@H]2CC[C@@H](CO)O2)c(=O)n1,syncytia,RT-M41L T215Y,CEM,HXB2,3.8
S=C(NCCC1=CCCCC1)Nc1ccc(Cl)cn1,,RT-K103N Y181C,PBMC,A17,10000
CC(C)=CCN1Cc2cc(Cl)cc3[nH]c(=S)n(c23)C[C@@H]1C,p24,RT-V106A,CEM,IIIB,25
Cc1occc1C(=S)Nc1ccc(Cl)c(/C=N/OC(C)(C)C)c1,cytopathic effect,RT-E138K,CEM,IIIB,3.13
COc1ccc(S(=O)(=O)N(CC(C)C)C[C@@H](O)[C@H](Cc2ccccc2)NC(=O)O[C@H]2CO[C@H]3OCC(F)(F)[C@H]32)cc1,,A28S L33F V82I GRL04810-resistant,MT-4,NL4-3,66
Cc1cn([C@@H]2O[C@H](CO[Si](C)(C)C(C)(C)C)C3(OS(=O)(=O)C=C3N)[C@H]2O[Si](C)(C)C(C)(C)C)c(=O)n(C)c1=O,syncytia,RT-V106A P225H,CEM,Quin-0.1 (RT V106A P225H),55
CCN1C(=O)N(Cc2ccccc2)S(=O)(=O)c2cscc21,syncytia,RT-Y188H,CEM,IIIB,>207
Nc1nc(N)c2ncn([C@H]3CO[C@@H](CO)O3)c2n1,,RT-M41L K70R T215Y K219Q,MT-2,,1.94

For reference, 3 entries again:

SMILES | read by | changes | cell line | strain | value
Cc1c(N)nc(N)nc1OCCOCP(=O)(O)O | syncytia | RT-M41L V118I L210W T215Y | CEM | Clinical isolate C19 | 8.5
CC(C)Nc1cccnc1N1CCN(C(=O)c2cc3ccccc3[nH]2)CC1 | syncytia | RT-Y181C | CEM | Pyr(RT-Y181C) | 22.5
CC(C)=CCOc1cc(NC(=S)c2ccoc2C)ccc1Cl | syncytia | RT-V179D | CEM | IIIB | 3.33